Compound potency records, mixed from different reports. Data source: NIAID ChemDB in PubChem.

All rows: tests in culture; species: HIV-1; read by: cytopathic effect / MTT; measure: fold resistance

Conditions beyond the fields shown may differ between rows. Fold resistance has wild type as its base. An empty or dashed field is not shown.

| smiles | cell line | strain | changes | result |
|---|---|---|---|---|
| Cc1cn([C@H]2C[C@H](N=[N+]=[N-])[C@@H](COC(=O)NCCSC(=O)OC[C@@H]3CC[C@H](n4cnc5c(=O)[nH]cnc54)O3)O2)c(=O)[nH]c1=O | MT-4 | NNRTI-resistant (RT Y181C) | RT-Y181C | 0.2 |
| CCOCn1c(Cc2ccccc2)c(C(C)C)c(=O)[nH]c1=O | MT-4 |  | RT-V179E | 4 |
| CCCc1c(C)[nH]c(=O)c(N(C)C)c1Cc1cc(C)cc(C)c1 | MT-4 | Recombinant | RT-Y181C | 1.99 |
| CC(C)=CCN1Cc2cccc3[nH]c(=S)n(c23)C[C@@H]1C | MT-4 | A17 | RT-K103N Y181C | >556 |
| CC(=O)c1ccc(C)cc1NC(C(N)=O)c1c(Cl)cccc1Cl | MT-4 | Recombinant mutant | RT-E138A | 2.1 |
| COc1c(O)c(Cl)c2c(c1OC)-c1c(c(Cl)c(O)c(OC)c1OC)C[C@H](C)[C@H](C)C2 | MT-2 | N119 nevirapine-resistant (RT Y181C) | RT-Y181C | >14.1 |
| CCOCn1c(Cc2ccccc2)c(C(C)C)c(=O)[nH]c1=O | MT-4 |  | RT-K103N | 100 |
| Cc1cn([C@H]2C=C[C@@H](CO)O2)c(=O)[nH]c1=O | MT-2 |  | RT-Q151M A62V | >8.9 |
| Fc1cccc(F)c1C1SCc2nc3ccccc3n21 | CEM | Pyridinone-resistant (RT Y181C) | RT-Y181C | 9.98 |
| COc1ccc2c(c1)N(C(=O)OC(C)C)[C@@H](CSC)C(=S)N2 | MT-4 | Recombinant mutant | RT-E138A | 1.6 |
| CCc1c(C)[nH]c(=O)c(N(C)C)c1Cc1cccc(/C=C/C#N)c1 | MT-4 |  | RT-Y188L | 395 |
| Nc1nc(NC2CC2)c2ncn([C@H]3C=C[C@@H](CO)C3)c2n1 | MT-2 |  | RT-Q151M V75I | >8 |
| CC(=O)Oc1ccc(/C=C/C(=O)O[C@@H](C(=O)O)[C@@H](OC(=O)/C=C/c2ccc(OC(C)=O)c(OC(C)=O)c2)C(=O)O)cc1OC(C)=O | MT-4 | NL4-3 | DS-resistant | >9 |
| CCCN(C)c1c(Cc2cc(C)cc(C)c2)c(CC)c(C)[nH]c1=O | MT-4 | Recombinant | RT-Y188L | 24.8 |
| CCn1c(=O)c(C)cn([C@@H]2O[C@H](CO[Si](C)(C)C(C)(C)C)C3(OS(=O)(=O)C=C3N)[C@H]2O[Si](C)(C)C(C)(C)C)c1=O | MT-4 | Recombinant mutant | RT-E138A | 15 |
| C/C=C/c1cccc(C(=O)c2c(CC)c(C)[nH]c(=O)c2N(C)C)c1 | MT-4 |  | RT-K103N | 31.6 |
| Fc1cccc(F)c1C1SCc2nc3ccccc3n21 |  | IIIB | RT-Y188H | 2.99 |
| Cc1ccnc2c1NC(=O)c1cccnc1N2C1CC1 | MT-2 | N119 nevirapine-resistant (RT Y181C) | RT-Y181C | >588 |
| Fc1cccc(Cl)c1C1OCc2nc3ccccc3n21 | CEM | TIBO R82150-resistant (RT L100I) | RT-L100I | 1.24 |
| Cc1cn([C@H]2C=C[C@@H](COC(=O)NCCSC(=O)OC[C@@H]3CC[C@H](n4cnc5c(=O)[nH]cnc54)O3)O2)c(=O)[nH]c1=O | MT-4 | NNRTI-resistant (RT K103N Y181C) | RT-K103N Y181C | >0.465 |
| CCc1c(C)[nH]c(=O)c(N(C)C)c1C(=O)c1cccc(C(C)C#N)c1 | MT-4 |  | RT-Y181C | 42 |
| Cc1cn([C@@H]2O[C@H](CO[Si](C)(C)C(C)(C)C)C3(OS(=O)(=O)C=C3N)[C@H]2O[Si](C)(C)C(C)(C)C)c(=O)n(C)c1=O | MT-4 | Recombinant mutant | RT-A98S | 0.2 |
| CCc1c(C)[nH]c(=O)c(N(C)C)c1C(=O)c1cc(C)cc(C)c1 | MT-4 |  | RT-E138K | 1.25 |
| Cc1cn([C@H]2C=C[C@@H](CO)O2)c(=O)[nH]c1=O | MT-4 | NNRTI-resistant (RT Y181C) | RT-Y181C | 0.24 |

Repeating the first 3 entries:

| smiles | cell line | strain | changes | result |
|---|---|---|---|---|
| Cc1cn([C@H]2C[C@H](N=[N+]=[N-])[C@@H](COC(=O)NCCSC(=O)OC[C@@H]3CC[C@H](n4cnc5c(=O)[nH]cnc54)O3)O2)c(=O)[nH]c1=O | MT-4 | NNRTI-resistant (RT Y181C) | RT-Y181C | 0.2 |
| CCOCn1c(Cc2ccccc2)c(C(C)C)c(=O)[nH]c1=O | MT-4 |  | RT-V179E | 4 |
| CCCc1c(C)[nH]c(=O)c(N(C)C)c1Cc1cc(C)cc(C)c1 | MT-4 | Recombinant | RT-Y181C | 1.99 |